From paper doi:10.1101/2021.05.31.446396v1

Tested on: Nc1ncnc2c1ncn2[C@@H]1O[C@H](COP(=O)(O)OP(=O)(O)OP(=O)(O)O)[C@@H](O)[C@H]1O
Assay: purified protein
Conditions: pH 7.5

Substance (Mycobacterium tuberculosis H37Rv) has a Km (20.0 °C) of 60 ± 30 µM and a Km (25.0 °C) of 30 ± 10 µM.
